Experimental data published in US9051591B2, “Bacterium of enterobacteriaceae family producing L-aspartic acid or L-aspartic acid-derived metabolites and a method for producing L-aspartic acid or L-aspartic acid-derived metabolites” (AJINOMOTO CO., INC., priority 2010, dated 2015).

Tests used:
Assay in all cases: purified protein, by the assay type
NADPH = settings: other: Oxaloacetate reductive amination
NADP^+ = settings: other: Aspartate oxidative deamination; Michaelis-Menten plots
NADH = settings: other: Oxaloacetate reductive amination; Michaelis-Menten plots

Substance: Ralstonia eutropha ADH-Re (Cupriavidus necator H16)
- Km (NADPH; Hill kinetic equation plots): 390 ± 40 µM
- Vmax (NADPH; Hill kinetic equation plots): 137 µmol/min/mg
- kcat (NADPH; Hill kinetic equation plots): 68.3 s⁻¹
- kcat/Km (NADPH; Hill kinetic equation plots): 183000 M⁻¹ s⁻¹
- Km (NADPH; Michaelis-Menten plots): 900 ± 300 µM
- Vmax (NADPH; Michaelis-Menten plots): 220 µmol/min/mg
- kcat (NADPH; Michaelis-Menten plots): 107 s⁻¹
- kcat/Km (NADPH; Michaelis-Menten plots): 117000 M⁻¹ s⁻¹
- Km (NADP^+): 2700 ± 400 µM
- Vmax (NADP^+): 10.9 µmol/min/mg
- kcat (NADP^+): 5.5 s⁻¹
- kcat/Km (NADP^+): 2000 M⁻¹ s⁻¹
- Km (NADH): 870 µM
- Vmax (NADH): 610 ± 40 µmol/min/mg
- kcat (NADH): 303.33 ± 18.33 s⁻¹
- kcat/Km (NADH): 350000 M⁻¹ s⁻¹
